# According to ChEMBL document CHEMBL3046626, “Antifungal chalcones and new caffeic acid esters from Zuccagnia punctata acting against soybean infecting fungi” (2004):
# Test system: Fusarium graminearum
# Test: Antifungal activity against Fusarium graminearum isolate CE169 after 48 to 72 hr
# Format: functional
compound,measurement,value
COC(=O)Nc1nc2ccccc2[nH]1 [CARBENDAZIM],MIC,1 mg/L
